Compound potency records, mixed from different reports. Data source: NIAID ChemDB in PubChem.

Common to all: whole-cell or culture tests; agent: Cryptococcus neoformans; read-out: MIC

a–b is a range or a potency band.

smiles	strain	result
CC(=O)OC1C=COC=C2CC34SSC5(CC6=COC=CC(OC(C)=O)C6N5C3=O)C(=O)N4C21	E138	10 µg/mL
CC(C)[C@@H](C)/C=C/[C@@H](C)[C@H]1CCC2=C3[C@@H](O)C4OC45C[C@@H](OC(=O)[C@@H](N)[C@@H](OS(=O)(=O)O)C(C)C)CC[C@]5(C)[C@H]3CC[C@@]21C(=O)O	MY2061	>32 µg/mL
C=C(C)CN1CC(OCC23C[C@@H]4[C@H](C)CC[C@H]4C4(C=O)CC2C=C(C(C)C)[C@@]34C(O)O)O[C@H](C)[C@@H](O)C1	ATCC 90012	0.12 µg/mL
CC[C@@]1(OC(=O)CN)C(=O)OCc2c1cc1n(c2=O)Cc2cc3cc4c(cc3nc2-1)OCO4	H99	1.56 µg/mL
Clc1ccc(-n2ncc(C(c3ccccc3)n3ccnc3)c2-c2ccccc2Cl)c(Cl)c1	-	≥11.1 µM
CN(C/C=C/C#CC(C)(C)C)Cc1cccc2ccccc12	3 strains	2.18 µg/mL
C=C(CC[C@@H](C)[C@H]1C[C@@H](O)[C@@]2(C(=O)O)C3=C(CC[C@]12C)[C@@]1(C)CC[C@H](O[C@@H]2O[C@@H](CO)[C@H](OC)[C@@H](O)[C@@H]2O)C(=C)[C@@H]1CC3)C(C)C	MY2062	32 µg/mL
CO/C1=C\C(C)=C\[C@@H](C)[C@@H](O)[C@@H](C)C/C(C)=C/C=C/[C@H](OC)[C@@H]([C@@H](C)[C@@H](O)[C@H](C)[C@@]2(O)C[C@@H](O)[C@H](C)[C@@H](C(C)C)O2)OC1=O	H99	>62.2 µg/mL
Cc1ccc(C2OC(=O)/C(=C/c3ccc(O)c(O)c3)C2C(=O)O)cc1O	ATCC 36556	100 µg/mL
C/C=C\C(C)=C\[C@H](C)C(=O)C[C@H](O)CC1CC(=O)NC(=O)C1	KF-33	50 µg/mL
CC[C@@]1(OC(=O)CN)C(=O)OCc2c1cc1n(c2=O)Cc2cc3c(N)c4c(cc3nc2-1)OCO4	H99	>100 µg/mL
CN[C@@H]1[C@H](O[C@@H]2OC[C@@H](O)[C@H](O)[C@H]2O)[C@@H](O)[C@H](O[C@H]2c3cc(C)c(C(=O)N[C@@H](CC(=O)O)C(=O)O)c(O)c3-c3c(cc4c(c3O)C(=O)c3cc(OC)cc(O)c3C4=O)[C@@H]2O)O[C@@H]1C	IAM 4514	>100 µg/mL
CN[C@@H]1[C@H](O)[C@@H](O)[C@H](O[C@H]2c3cc(C)c(C(=O)N[C@H](C)C(=O)O)c(O)c3-c3c(cc4c(c3O)C(=O)c3cc(OC)cc(O)c3C4=O)[C@@H]2O)O[C@@H]1C	IAM 4514	1.6 µg/mL
CN(Cc1ccc(C(C)(C)C)cc1)Cc1cccc2ccccc12	4 strains	1.17 µg/mL
CCC(C)CC(C)CCCCCCCCC(=O)N[C@H]1C[C@@H](O)[C@@H](OCCN)NC(=O)[C@@H]2C[C@@H](O)CN2C(=O)[C@H]([C@H](O)CCN)NC(=O)[C@H]([C@H](O)[C@@H](O)c2ccc(O)cc2)NC(=O)[C@@H]2C[C@@H](O)CN2C(=O)[C@H]([C@@H](C)O)NC1=O	MY2061	16 µg/mL
c1ccc(-c2c(C(c3ccccc3)n3ccnc3)cnn2-c2ccccc2)cc1	-	22 µM
CO[C@H]1OC(=O)C[C@@]2(O)[C@@]13O[C@@H]3C1OC(=O)[C@@]3(C)CCC[C@@]2(C)[C@@H]13	ATCC90112	>64 µg/mL
CC(C)(C)C1CCC(CN2C3=NC[C@@H](C4CCCCC4)N3C[C@H]2C2CCCCC2)CC1	ATCC 32045	4–8 µg/mL
CN[C@@H]1[C@H](O[C@@H]2OC[C@@H](O)[C@H](O)[C@H]2O)[C@@H](O)[C@H](O[C@H]2c3cc(C)c(C(=O)N[C@@H](CO)C(=O)O)c(O)c3-c3c(cc4c(c3O)C(=O)c3cc(OC)cc(O)c3C4=O)[C@@H]2O)O[C@@H]1C	IAM 4514	25 µg/mL
CC(C)C[C@@H]1CN2C(=NC[C@@H]2C2CCCCC2)N1CCC12CC3CC(CC(C3)C1)C2	ATCC 32045	5–8 µg/mL
OC(Cn1cncn1)(Cn1cncn1)c1ccc(F)cc1F	H99	6.25 µg/mL
CN[C@@H]1[C@H](O[C@@H]2OC[C@@H](O)[C@H](O)[C@H]2O)[C@@H](O)[C@H](O[C@H]2c3cc(C)c(C(=O)N(C)CC(=O)O)c(O)c3-c3c(cc4c(c3O)C(=O)c3cc(OC)cc(O)c3C4=O)[C@@H]2O)O[C@@H]1C	IAM 4514	>100 µg/mL
C1CCC(C[C@@H]2CN3C(=NC[C@@H]3C3CCCCC3)N2CCC23CC4CC(CC(C4)C2)C3)CC1	ATCC 32045	3–4 µg/mL
COc1cc(O)c2c(c1)C(=O)c1c(cc3c(c1O)-c1c(cc(C)c(C(=O)N[C@H](C)C(=O)O)c1O)[C@H](O[C@@H]1O[C@H](C)[C@H](N)[C@H](O[C@@H]4OC[C@@H](O)[C@H](O)[C@@H]4O)[C@H]1O)[C@H]3O)C2=O	IAM 4514	1.6 µg/mL
C[C@@]12CCC[C@]3(C)C4=CC(=O)OC[C@]45O[C@@H]5C(OC1=O)[C@@H]23	ATCC90112	16 µg/mL
C1CCC([C@H]2CN3C(=NC[C@@H]3C3CCCCC3)N2CCC23CC4CC(CC(C4)C2)C3)CC1	ATCC 32045	8–16 µg/mL
C[C@H]1[C@H](O)[C@@H](C)/C=C/C=C/C=C/C=C/C=C/C=C/C=C/[C@H](O[C@@H]2O[C@H](C)[C@@H](O)[C@H](N)[C@@H]2O)C[C@@H]2O[C@](O)(C[C@@H](O)C[C@@H](O)CC[C@H](O)[C@@H](O)C[C@@H](O)CC(=O)O[C@H]1C)C[C@H](O)[C@H]2C(=O)O	-	1.2 µM
CC(C)(C)C1CCC(CN2C3=NC[C@@H](CC4CCCCC4)N3C[C@@H]2C2CCCCC2)CC1	ATCC 32045	8–16 µg/mL
CN[C@@H]1[C@H](O[C@@H]2OC[C@@H](O)[C@H](O)[C@H]2O)[C@@H](O)[C@H](O[C@H]2c3cc(C)c(C(=O)N4CCC[C@@H]4C(=O)O)c(O)c3-c3c(cc4c(c3O)C(=O)c3cc(OC)cc(O)c3C4=O)[C@@H]2O)O[C@@H]1C	IAM 4514	>100 µg/mL
C1CCC([C@H]2CN=C3N2C[C@@H](C2CCCCC2)N3CCC23CC4CC(CC(C4)C2)C3)CC1	ATCC 32045	4–8 µg/mL
CC(C/C=C/C=C/CC/C=C\C=C\CCC(C)(C)C)C(O)C(O)C(O)C(O)C(O)C1OC(=O)C(O)C1O	D49	3.1 µg/mL
[Cl-].[Li+]	H99	>42 µg/mL
C1CCC([C@@H]2CN3C(=NC[C@H]3C3CCCCC3)N2CCC23CC4CC(CC(C4)C2)C3)CC1	ATCC 32045	8–16 µg/mL

A second listing of 5 rows from above:

smiles	strain	result
CO/C1=C\C(C)=C\[C@@H](C)[C@@H](O)[C@@H](C)C/C(C)=C/C=C/[C@H](OC)[C@@H]([C@@H](C)[C@@H](O)[C@H](C)[C@@]2(O)C[C@@H](O)[C@H](C)[C@@H](C(C)C)O2)OC1=O	H99	>62.2 µg/mL
CN(Cc1ccc(C(C)(C)C)cc1)Cc1cccc2ccccc12	4 strains	1.17 µg/mL
C[C@@]12CCC[C@]3(C)C4=CC(=O)OC[C@]45O[C@@H]5C(OC1=O)[C@@H]23	ATCC90112	16 µg/mL
CC(C)[C@@H](C)/C=C/[C@@H](C)[C@H]1CCC2=C3[C@@H](O)C4OC45C[C@@H](OC(=O)[C@@H](N)[C@@H](OS(=O)(=O)O)C(C)C)CC[C@]5(C)[C@H]3CC[C@@]21C(=O)O	MY2061	>32 µg/mL
[Cl-].[Li+]	H99	>42 µg/mL

Conditions beyond the fields shown may differ between rows. Blank or dashed fields: not listed here.